From article PMC12131781
Protein sequences can lack the tags named with them.

Target: T1, His-RstA (Klebsiella pneumoniae ATCC43816) (UniProt A6T8N1)
T1 sequence (looked up): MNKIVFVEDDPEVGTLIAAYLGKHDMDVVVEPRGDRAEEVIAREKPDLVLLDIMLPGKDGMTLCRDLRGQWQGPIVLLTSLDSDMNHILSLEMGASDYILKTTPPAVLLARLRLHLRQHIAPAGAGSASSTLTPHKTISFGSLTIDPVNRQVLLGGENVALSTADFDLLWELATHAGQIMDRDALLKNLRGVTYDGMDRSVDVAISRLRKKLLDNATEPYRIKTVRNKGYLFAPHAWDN
Experiment: EMSA
Conditions: dose-dependent; 100 ng DNA fragment with purified RstA in binding buffer (composition not given), 37 C, 30 min; PAGE, GelRed stain; recombinant protein; residues 1-239; protein details: His (pET28a); label: none (GelRed stain); probe letters rebuilt from the primers and the genome

GCGTGGCAAAAAGTGCGATTTAGATCACATTTTTATGGCGGTTTGATGGCGTAAACATGATCGTTTATCTATTTTTTAATTTAAAAACAATGGATTAATGATTTACTTCTGAAAGGGGGATCACATGGGCTGCCCTTGTTCAGGGAGAGGAATGCGCCTCATTCATGCTTTCATCATTCGCTGTGTGAATGGTTTGGTGCTGTTTTCACCACCGCAAAGGCAGATTCAGACTTATCGCGATGGCCTTCCGAGGGCTTTTTCTGCATGCTGTTGCGGTCACTTTCTCCCGCTCTGGCGTTAGGCTTGCTGCGCTGTAAACAACCACCCTCGCGTTTTCATCTATCAATGACTGTTTATTAATAGTCGATGGTTATCTGTTATATAACTTAATGAAACGTGAACAAATGTATATTTGTCGGCGAATAAATAGCATTCTTTGACGCCGATAGCACCAGCGAACTTATATTTTTAGGTTCGTTACCTGACGCCTTAAATATTGCGGCTCCCGGTCAGTCGAAGATTCTATTAGCAGTGGCATAAATCAGCATCGCCTGATGTTTCTGGTTCTATGCGAATTCACAGTGTGCTCATTGATTCGTAATTCACTCTGACAAGGAA (double strand) [mrkA promoter-proximal region]
binding result: binds
